Results published in publication PMC3920255 (Toxins, 2013).
Values after ≈ are worked out from the molar mass of the structure shown.

Test system: primary cultured rat hepatocytes

| Structure (SMILES) | IC50 (concentration showing 50% cell viability) [mg/L] |
| --- | --- |
| C=C1C(=O)N[C@H](C)C(=O)N[C@@H](CCCNC(=N)N)C(=O)N[C@@H](C(=O)O)CC(=O)N[C@@H](CCCNC(=N)N)C(=O)N[C@@H](/C=C/C(C)=C/[C@H](C)[C@H](Cc2ccccc2)OC)[C@H](C)C(=O)N[C@@H](C(=O)O)CCC(=O)N1C | >10 |
| C/C=C1/NC(=O)CC[C@H](C(=O)O)NC(=O)[C@@H](C)[C@H](/C=C/C(C)=C/[C@H](C)[C@H](Cc2ccccc2)OC)NC(=O)[C@H](CCCNC(=N)N)NC(=O)C[C@H](C(=O)O)NC(=O)[C@H](CCCNC(=N)N)NC(=O)[C@@H](C)NC1=O | 4.95 (≈ 4.83 µM) |
